Paper PMC3612826, “Structural-Functional Analysis of 2,1,3-Benzoxadiazoles and Their N-oxides As HIV-1 Integrase Inhibitors” (Acta Naturae, 2013)
Where two headings read alike, the source gives them in different places.

Tests used:
recombinant HIV-1 IN = recombinant HIV-1 IN (Human immunodeficiency virus type 1 group M subtype B, UniProt P12497); assay: Inhibition of the 3'-end processing reaction; type: biochemical
wild-type HIV-1 IN = wild-type HIV-1 IN (Human immunodeficiency virus type 1 group M subtype B, UniProt P12497); assay: Inhibition of the strand transfer reaction, wild-type IN; type: biochemical; details: for Inhibitory activity during the strand transfer reaction, wild-type, IC95: 95 % suppression
HIV-1 IN active site = HIV-1 IN active site (Human immunodeficiency virus type 1 group M subtype B, UniProt P12497); details: read-out: IC, binding of DNA at the active site of IN; covalent attachment of U5B/U5A^m duplex 10 nM to IN 100 nM, 1 h, 37°C
[1] = target: HIV-1 IN (DNA-binding activity) (Human immunodeficiency virus type 1 group M subtype B, UniProt P12497); assay: Gel shift analysis: binding of IN to DNA; details: read-out: IC, binding of IN to DNA, U5B/U5A duplex, 25°C
HIV-1 IN N155H mutant = HIV-1 IN N155H mutant (Human immunodeficiency virus type 1 group M subtype B, UniProt P12497, N1302H); assay: Inhibition of the strand transfer reaction, Raltegravir-resistant mutant IN; details: for Inhibitory activity during the strand transfer reaction, N155H mutant, IC95: 95 % suppression; for IC50: read-out: Inhibitory activity during the strand transfer reaction, N155H mutant, IC50
[2] = target: HIV-1 IN Q148K/G140S mutant (Human immunodeficiency virus type 1 group M subtype B, UniProt P12497, G1287S/Q1295K); assay: as above; details: for Inhibitory activity during the strand transfer reaction, Q148K/G140S mutant, IC95: 95 % suppression; for IC50: read-out: Inhibitory activity during the strand transfer reaction, Q148K/G140S mutant, IC50
[3] = read-out: IC, 3'-processing, Mg^2+, Mg^2+ cofactor
[4] = read-out: IC, 3'-processing, Mn^2+, Mn^2+ cofactor
[5] = read-out: IC, strand transfer, Mg^2+, Mg^2+ cofactor
[6] = read-out: IC, strand transfer, Mn^2+, Mn^2+ cofactor
[7] = read-out: Inhibitory activity during the strand transfer reaction, wild-type, IC50, wild-type IN

| Compound | IC50 (recombinant HIV-1 IN; [3]) [µM] | IC50 (recombinant HIV-1 IN; [4]) [µM] | IC50 (wild-type HIV-1 IN; [5]) [µM] | IC50 (wild-type HIV-1 IN; [6]) [µM] | IC50 (wild-type HIV-1 IN; [7]) [µM] | Inhibitory activity during the strand transfer reaction, wild-type, IC95 (wild-type HIV-1 IN; wild-type IN) [µM] | IC50 (HIV-1 IN active site) [µM] | IC50 [1] [µM] | Inhibitory activity during the strand transfer reaction, N155H mutant, IC95 (HIV-1 IN N155H mutant) [µM] | IC50 (HIV-1 IN N155H mutant) [µM] | Inhibitory activity during the strand transfer reaction, Q148K/G140S mutant, IC95 [2] [µM] | IC50 [2] [µM] |
| --- | --- | --- | --- | --- | --- | --- | --- | --- | --- | --- | --- | --- |
| Cc1ccc([N+](=O)[O-])c2no[n+]([O-])c12 | 0.5 | 0.5 | 0.4 | 0.5 | 0.4 | 3.5 ± 0.9 | 0.6 | 10 | 8.2 ± 1.7 | 0.9 | 4.3 ± 0.8 | 0.8 |
| 6-nitro-BFZ | 0.5 | 1 | 5 | 4 | 5 | 18.0 ± 2.0 | 1 | – | 18.8 ± 2.5 | 6 | 15.3 ± 2.8 | 4 |
| O=[N+]([O-])c1cc([N+](=O)[O-])c2no[n+]([O-])c2c1CBr | 6 | 5 | 2 | 5 | – | – | 6 | 25 | – | – | – | – |
